A mixed list of measured activities; the numbers were collected in NIAID ChemDB.

Common to all: tests on isolated targets; species: HIV-1; protein: Reverse transcriptase; endpoint: fold resistance

Fold resistance has wild type as its base.

CCN1c2ncc(CCOc3ccc(CC(N)=O)c4ccccc34)cc2C(=O)N(C)c2cccnc21 ; read by: nucleotide incorporation / radiometric ; changes: RT-K103N Y181C ; result: 1
Cc1cn([C@H]2C=C[C@@H](COP(=O)(O)OP(=O)(O)OP(=O)(O)O)O2)c(=O)[nH]c1=O ; changes: RT-H208Y ; result: 2.8
CCc1c([Se]c2ccccn2)n(COCc2ccccc2)c(=O)[nH]c1=O ; read by: RT activity ; changes: RT-L100I ; result: 3
Nc1ncnc2c1ncn2[C@H]1CC[C@@H](COP(=O)(O)OP(=O)(O)OP(=O)(O)O)O1 ; read by: ELISA ; changes: RT-T215Y K219Q ; result: 1.24
O=C(O)Cn1cnc2c(=O)[nH]c(NC(=O)OCc3ccccc3)nc21 ; read by: nucleotide incorporation / radiometric ; strain: NNRTI-resistant ; changes: Y181I ; result: 2.55
CC(C)=CCN1C(C)C(=O)Nc2ccc(Cl)cc2S1(=O)=O ; read by: RT activity ; strain: IIIB ; changes: RT-L100I ; result: 9.09
CC(C)Nc1cccnc1N1CCN(C(=O)c2cc3cc4c(cc3[nH]2)OCO4)CC1 ; strain: IIIB ; changes: RT-P236L ; result: 7.5
Cc1cn([C@@H]2O[C@H](CO[Si](C)(C)C(C)(C)C)C3(OS(=O)(=O)C=C3N)[C@H]2O[Si](C)(C)C(C)(C)C)c(=O)n(C)c1=O ; read by: RT activity ; strain: IIIB ; changes: RT-P225H ; result: 0.733
O=c1c2cccn2c2cccc(F)c2n1CCNC(=S)Nc1ccc(Br)cn1 ; read by: nucleotide incorporation ; changes: RT-K103N ; result: 17.8
CCc1c(Sc2ccccc2)n(COCc2ccccc2)c(=O)[nH]c1=O ; read by: RT activity ; changes: RT-L100I ; result: 2
CCc1cc(CCc2nc3ccccc3o2)c(=S)[nH]c1C ; read by: nucleotide incorporation ; changes: RT-K103N ; result: 19
CN(C)C(=O)/C=C/CSc1nc(N)cc(Cl)n1 ; read by: nucleotide incorporation ; changes: RT-P236L ; result: 0.35
CCc1cc(CCc2nc3c(Cl)ccc(Cl)c3o2)c(=O)[nH]c1C ; read by: nucleotide incorporation ; changes: RT-Y181C ; result: 12
C/C=C/CSc1cc(NC(=S)c2ccsc2C)ccc1Cl ; changes: RT-Y188L ; result: >13.33
CCc1c([Se]c2ccccc2)n(COCc2ccccc2)c(=O)[nH]c1=O ; read by: RT activity ; changes: RT-T181C ; result: 24
OCc1cn(Cc2ccncc2)c(Sc2cc(Cl)cc(Cl)c2)c1C1CCC1 ; read by: nucleotide incorporation / radiometric ; changes: RT-K103N ; result: 541
CCN1c2ncc(CCOc3ccc(C(=O)O)c4c3CCCC4)cc2C(=O)N(C)c2cccnc21 ; read by: nucleotide incorporation / radiometric ; changes: RT-V106A ; result: >10
O=c1c2cccn2c2ccccc2n1CCNC(=S)Nc1ccc(Br)cn1 ; read by: nucleotide incorporation ; changes: RT-L100I ; result: 1.81
CCC1(c2cccc(Cl)c2)Oc2ccccc2-n2cccc2C1=O ; read by: nucleotide incorporation / radiometric ; changes: RT-Y188L ; result: 13.8
Cc1c(Cc2c(F)cccc2F)nc(Sc2ccc(Cl)cc2)[nH]c1=O ; changes: RT-K103N ; result: >18
Nc1ncnc2c1ncn2[C@@H]1O[C@H](COP(=O)(O)OP(=O)(O)OP(=O)(O)O)C[C@@H]1F ; read by: nucleotide incorporation / radiometric ; changes: RT-T215Y ; result: 1.42
CNc1ccc(Cl)cc1S(=O)(=O)c1ccccc1[N+](=O)[O-] ; changes: RT-K103N ; result: 9.09
CCc1c(Sc2ccccn2)n(COCc2ccccc2)c(=O)[nH]c1=O ; changes: RT-L100I ; result: 1
Cc1cc(S(N)(=O)=O)ccc1NC(=O)COc1ccc(Cl)cc1C(=O)c1cc(Cl)cc(C#N)c1 ; read by: fluorescence ; changes: RT-V108I Y181C ; result: 2.66
CC(C)=CCN1C(=O)Nc2ccc(Cl)cc2S1(=O)=O ; read by: RT activity ; strain: IIIB ; changes: RT-L100I ; result: 3.7
CCOc1cccc(C2(CC)Oc3ccccc3-n3cccc3C2=O)c1 ; read by: nucleotide incorporation / radiometric ; changes: RT-V106A ; result: 6.3
CC(C)=CCOc1cc(NC(=S)c2ccoc2C)ccc1Cl ; read by: nucleotide incorporation / radiometric ; changes: RT-P225H ; result: 3.9
Cc1cc(C)cc(S(=O)(=O)c2c(C(=O)NNCCO)[nH]c3ccc(Cl)cc23)c1 ; read by: nucleotide incorporation / radiometric ; changes: RT-L101I ; result: 250
CCN1c2ncc(CCOc3ccc(S(N)(=O)=O)c4ccccc34)cc2C(=O)N(C)c2cccnc21 ; read by: nucleotide incorporation / radiometric ; changes: RT-K103N Y181C ; result: 1
Cc1cc2c(cc1C)n1cccc1c(=O)n2CCNC(=S)Nc1ccc(Br)cn1 ; read by: nucleotide incorporation ; changes: RT-Y181I ; result: 19.8
CCNc1cccnc1N1CCN(C(=O)c2cc3cc4c(cc3[nH]2)OCO4)CC1 ; strain: IIIB ; changes: RT-P236L ; result: 20
CCN1c2ncccc2C(=O)N(C)c2ccc(-c3cc[nH]c3)nc21 ; read by: nucleotide incorporation ; changes: RT-K103N ; result: 1.52
COc1ccc(Sc2nc(Cc3c(Cl)cccc3Cl)c(C)c(=O)[nH]2)cn1 ; changes: RT-K103N ; result: >114
CN(C)c1nc(Cc2c(F)cccc2F)cc(=O)[nH]1 ; read by: nucleotide incorporation / radiometric ; strain: IIIB ; changes: RT-Y181I ; result: 37.5
CC(C)=CCN1Cc2cc(Cl)cc3[nH]c(=O)n(c23)C[C@@H]1C ; read by: nucleotide incorporation / radiometric ; changes: RT-V106A ; result: 10
CC(=O)c1ccc(C)cc1NC(C(N)=O)c1c(Cl)cccc1Cl ; read by: RT activity ; strain: IIIB ; changes: RT-P225H ; result: 1.9
CCC1(c2cccc(I)c2)Oc2ccccc2-n2cccc2C1=O ; read by: nucleotide incorporation / radiometric ; changes: RT-K103N ; result: >200
Cc1c(Cc2c(Cl)cccc2Cl)nc(S(=O)(=O)Cc2ccc(Br)cc2)[nH]c1=O ; read by: nucleotide incorporation / radiometric ; changes: RT-181I ; result: ~1
Cc1cn([C@H]2C=C[C@@H](COP(=O)(O)OP(=O)(O)OP(=O)(O)O)O2)c(=O)[nH]c1=O ; read by: RT activity ; changes: RT-Y188L ; result: 2
Cc1c(Cc2c(Cl)cccc2Cl)nc(Sc2ccccc2)[nH]c1=O ; changes: RT-K103N ; result: >11
Cc1occc1C(=S)Nc1ccc(Cl)c(/C=N/OC(C)(C)C)c1 ; changes: RT-Y181I ; result: 5.05
Cc1c(Cc2c(F)cccc2F)nc(Sc2ccccc2)[nH]c1=O ; changes: RT-K103N ; result: >12.5
CC(C)=CCN1C(=O)c2cccn2-c2ccc(Cl)cc2S1(=O)=O ; read by: RT activity ; strain: IIIB ; changes: RT-Y181C ; result: 21.4
Cc1cn([C@H]2CC[C@@H](COP(=O)(O)OP(=O)(O)OP(=O)(O)O)O2)c(=O)[nH]c1=O ; read by: nucleotide incorporation / radiometric ; changes: RT-E138K ; result: 1
Nc1ncnc2c1ncn2[C@H]1CC[C@@H](COP(=O)(O)OP(=O)(O)OP(=O)(O)O)O1 ; read by: nucleotide incorporation / radiometric ; changes: RT-M184V ; result: 1.16
Cc1cn([C@H]2C=C[C@@H](COP(=O)(O)OP(=O)(O)OP(=O)(O)O)O2)c(=O)[nH]c1=O ; read by: nucleotide incorporation / radiometric ; changes: RT-V106A P225H ; result: 1.4
CCC1(c2ccc(Cn3ccsc3=N)cc2)Oc2ccccc2-n2cccc2C1=O ; read by: nucleotide incorporation / radiometric ; changes: RT-Y188L ; result: >6.25
Cc1c(Cc2c(Cl)cccc2Cl)nc(Sc2ccc(F)cc2F)[nH]c1=O ; changes: Y181I ; result: >40
CN(C)P(=O)(c1ccccc1)c1c(C(N)=O)[nH]c2ccc(Cl)cc12 ; changes: RT-K103N Y181C ; result: >3.57
Cc1c(C(C)c2c(F)cccc2F)nc(N(C)C)[nH]c1=O ; read by: nucleotide incorporation / radiometric ; changes: RT-L100I ; result: 12
O=c1c2cccn2ccn1CCNC(=S)Nc1ccc(Br)cn1 ; read by: nucleotide incorporation ; changes: RT-K103N ; result: 0.944
C#C[C@@]1(COP(=O)(O)OP(=O)(O)OP(=O)(O)O)CC[C@H](n2ccc(N)nc2=O)O1 ; read by: nucleotide incorporation / radiometric ; changes: RT-M184V ; result: 4
Nc1ccn([C@H]2CC[C@@H](COP(=O)(O)OP(=O)(O)OP(=O)(O)O)O2)c(=O)n1 ; read by: ELISA ; changes: RT-L74V T215Y K219Q ; result: 3.375
CCOc1ccccc1N1CCN(C(=O)c2cc3cc4c(cc3[nH]2)OCO4)CC1 ; strain: IIIB ; changes: RT-P236L ; result: >8.93
CCN1c2ncc(CCOc3cccc4c3CCCN4CC(=O)O)cc2C(=O)N(C)c2cccnc21 ; read by: nucleotide incorporation / radiometric ; changes: RT-K103N Y181C ; result: >10
COc1cc(CSc2nc(Cc3c(Cl)cccc3Cl)c(C)c(=O)[nH]2)cc(OC)c1 ; read by: nucleotide incorporation / radiometric ; changes: RT-181I ; result: >1.56
CC(C)=CCOc1cc(NC(=S)c2ccoc2C)ccc1Cl ; changes: RT-P236L ; result: 0.34
Cc1c(Sc2ccccc2)n(COCCO)c(=O)[nH]c1=O ; read by: nucleotide incorporation ; changes: RT-Y188L ; result: >100
O=C(O)Cn1cnc2c(Oc3ccccc3[N+](=O)[O-])nc(NC(=O)OCc3ccccc3)nc21 ; read by: nucleotide incorporation / radiometric ; strain: NNRTI-resistant ; changes: L100I ; result: 14.3
CCC1(c2ccc(CNc3ccccc3)cc2)Oc2ccccc2-n2cccc2C1=O ; read by: nucleotide incorporation / radiometric ; changes: RT-V106A ; result: 13.3
NC(=O)OCc1cn(Cc2ccncc2)c(Sc2cc(Cl)cc(Cl)c2)c1C1CCC1 ; read by: nucleotide incorporation / radiometric ; changes: RT-L100I ; result: 347.5
O=c1c2cccn2c2cc(Cl)c(Cl)cc2n1CCNC(=S)Nc1ccc(Br)cn1 ; read by: nucleotide incorporation ; changes: RT-Y188L ; result: 7.5
CCC1(c2ccc(CCc3ccccc3)cc2)Oc2ccccc2-n2cccc2C1=O ; read by: nucleotide incorporation / radiometric ; changes: RT-Y188L ; result: >58.8
Nc1ccn([C@H]2CC[C@@H](COP(=O)(O)OP(=O)(O)OP(=O)(O)O)O2)c(=O)n1 ; read by: nucleotide incorporation / radiometric ; changes: RT-V106A P225H ; result: 0.72
Cc1c(C(C)c2c(F)cccc2F)nc(N2CCOCC2)[nH]c1=O ; read by: nucleotide incorporation / radiometric ; strain: IIIB ; changes: RT-V106A ; result: >6670
CCC1(c2ccc(COc3cccc(Cl)c3)cc2)Oc2ccccc2-n2cccc2C1=O ; read by: nucleotide incorporation / radiometric ; changes: RT-L100I ; result: 2.5
Cc1cn([C@H]2C=C[C@@H](COP(=O)(O)OP(=O)(O)OP(=O)(O)O)O2)c(=O)[nH]c1=O ; read by: nucleotide incorporation / radiometric ; changes: RT-K65R ; result: 2.79
Cc1c(Cc2c(F)cccc2F)nc(SCc2ccc(C#N)cc2)[nH]c1=O ; read by: nucleotide incorporation / radiometric ; changes: RT-181I ; result: >526
c1ccc(C2SCc3nc4ccccc4n32)cc1 ; changes: RT-V179D ; result: 1
CCC1(c2ccc(COc3ccccc3)cc2)Oc2ccccc2-n2cccc2C1=O ; read by: nucleotide incorporation / radiometric ; changes: RT-Y188L ; result: 15.3
Cc1c(Cc2c(Cl)cccc2Cl)nc(SCc2ccc(Cl)cc2)[nH]c1=O ; read by: nucleotide incorporation / radiometric ; changes: RT-181I ; result: >20

Repeating the first 5 entries:

CCN1c2ncc(CCOc3ccc(CC(N)=O)c4ccccc34)cc2C(=O)N(C)c2cccnc21 ; read by: nucleotide incorporation / radiometric ; changes: RT-K103N Y181C ; result: 1
Cc1cn([C@H]2C=C[C@@H](COP(=O)(O)OP(=O)(O)OP(=O)(O)O)O2)c(=O)[nH]c1=O ; changes: RT-H208Y ; result: 2.8
CCc1c([Se]c2ccccn2)n(COCc2ccccc2)c(=O)[nH]c1=O ; read by: RT activity ; changes: RT-L100I ; result: 3
Nc1ncnc2c1ncn2[C@H]1CC[C@@H](COP(=O)(O)OP(=O)(O)OP(=O)(O)O)O1 ; read by: ELISA ; changes: RT-T215Y K219Q ; result: 1.24
O=C(O)Cn1cnc2c(=O)[nH]c(NC(=O)OCc3ccccc3)nc21 ; read by: nucleotide incorporation / radiometric ; strain: NNRTI-resistant ; changes: Y181I ; result: 2.55

Conditions beyond the fields shown may differ between rows.